Data from publication PMC10223265 (Viruses, 2023).

Assay: general procedure: Fmoc solid-phase peptide synthesis
Details: whole synthesis, 210 nm, scale of the general procedure 0.1 mmol

Substance: MTWEEWDKKIEELIKKSEELIKKIEEQIKKQEESIKK(PEG4-TAKW)
- final HPLC purity: 99% purity
